# Results published in PubChem BioAssay AID540256 (National Center for Advancing Translational Sciences (NCATS), 2011).
# Only a part is listed here, and it is no random draw. Results filed as inconclusive are left out. The source made the active and inactive calls. Calls come from the whole dose curve; tested in HEK293 cells.
# Experiment: qHTS for Inhibitors of binding or entry into cells for Lassa Virus; note: nearly all actives have a fitted effect of over 50% in size
# Details: Lassa virus pseudotype entry inhibition, cell reporter
# Potency is the fitted concentration of half-maximal effect.
row,SMILES,Potency
1,CC(O)C1C=CC=CC(=O)OC2CC3OC4C5OC5(C)C(O)CC4(COC(=O)C(O)C(C)CCO1)C2(C)C31CO1 (stereo not drawn),active: 126 nM
2,CC1=CC2OC3CC4OC(=O)C=CC=CC(C(C)O)OCC(O)C5(C)OC5C(=O)OCC2(CC1O)C4(C)C31CO1 (stereo not drawn),active: 224 nM
3,CC(=O)O[C@H]1C[C@@H]2OC3C=C(C)CCC3(C)[C@@]1(C)[C@@]21CO1 (stereo partly drawn),active: 631 nM
